{"source": "ChEMBL document CHEMBL3817767", "about": "“OpenGrowth: An Automated and Rational Algorithm for Finding New Protein Ligands” (J Med Chem, 2016)", "biological_target": "Protease (Human immunodeficiency virus 1, UniProt Q9YQ12, I47A)", "experiment": "Binding affinity to HIV1 protease I47A mutant", "note": "pKd: −log10 of the molar value.", "data": [{"smiles": "Cc1cccc(C)c1OCC(=O)N[C@@H](Cc1ccccc1)[C@@H](O)C[C@H](Cc1ccccc1)NC(=O)[C@H](C(C)C)N1CCCNC1=O", "note": "[LOPINAVIR]", "values": [{"measurement": "pKd", "result": 8.96}]}]}
